The values below come from ChEMBL document CHEMBL3596151, “Elucidation of the in vitro and in vivo activities of bridged 1,2,4-trioxolanes, bridged 1,2,4,5-tetraoxanes, tricyclic monoperoxides, silyl peroxides, and hydroxylamine derivatives against Schistosoma mansoni” (Bioorg Med Chem, 2015).

For the experiment, the system named is Schistosoma mansoni. The experiment in a line: Antischistosomal activity against newly transformed Schistosoma mansoni cercariae assessed as decrease in viability after 72 hrs by microscopic analysis.

Turning to `C[C@]12C[C@](C)(OO1)OO2`, the IC50 (commonly the concentration that gives 50% inhibition) was 20.2 µM.
